{"source": "paper PMC8284666", "about": "“Biochemical characterization of protease activity of Nsp3 from SARS-CoV-2 and its inhibition by nanobodies” (PLoS ONE, 2021)", "test_system": "panel of 42 human DUBs and the viral ovarian tumor (vOTU)", "details": "tested at 10 and 1 μM; result in words"}
{"smiles": "CC(Cc1ccc(O)c(O)c1)C(C)Cc1ccc(O)c(O)c1", "note": "(stereo not shown) [Nordihydroguaiaretic acid]", "values": [{"measurement": "selectivity / off-target inhibition in the DUB panel", "result": "inhibited–at different extents–several other human DUBs"}]}
